According to patent US4935362A, “BMY-28121, a new antitumor antibiotic” (Bristol-Myers Company, priority 1987, dated 1990):

Test system: anaerobic bacteria
Experiment: Antibacterial spectrum, anaerobic bacteria
Assay type: cell-based
Conditions: incl. clindamycin-resistant C. difficile and clindamycin or ampicillin-resistant B. fragilis

For `COc1cccc2c1N[C@H](O)[C@@H]1CC(/C=C/C(=O)N(C)C)=CN1C2=O` [BMY-28121 A], the “inhibition of anaerobic bacteria” value was “inhibited all of the gram-positive and negative organisms”.
